Experimental data as given in patent US20210244721A1, “SMALL MOLECULE ENTEROVIRUS INHIBITORS AND USES THEREOF” (priority 2020, published 2021).

Test system: RD cells
Assay: Cytotoxicity, neutral red method, RD cells

| Compound | CC50 |
| --- | --- |
| COc1ccc(CC(C)NCC(O)c2ccc(O)c(NC=O)c2)cc1 (centres unmarked) | 146 µM |
| COc1ccc(C[C@@H](C)NC[C@H](O)c2ccc(O)c(NC=O)c2)cc1 | 146 µM |
